## Percent effect of library compounds

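Phenotypic screen: M. tuberculosis growth, glucose 7H9 medium, 3 days; the read-out is not stated. Concentration: 500 µM. Higher reads as more growth inhibition (inferred: compounds with an IC50 in retests scored well above the rest). Of about 18,000 compounds tested this way, about 1,400 (7.9%) reached 50% or more in at least one test.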

The filed quantity is “Percent Effect” (%). The record does not define 0% and 100%; most values in the screen are far below 50% and negative numbers occur (in some assays of this library far below -100). The entries come from a sample that favours strong results.

structure	effect
CC(C(N)=O)S(=O)(=O)Cc1ccc(Br)s1 (stereo not shown)	26.11
NCc1nc(-c2ccccn2)cs1	21.12
c1ccc(COCCc2noc(C3CNC3)n2)cc1	101.5
CC(C)N(CCOc1ccccc1C#N)CC(N)=O	44.62
Cc1cc(C)c(NC(=O)N[C@@H]2CCNC[C@H]2O)c(Cl)c1	21.29
CC(C)CN1CCC(NCCSc2nnnn2C)CC1	4.744
c1ccc(NCc2c[nH]nn2)cc1	14.37
CCCC(=O)NCc1nnc(C2CCC2)n1C	-7.919
Cc1noc(CN2C[C@H](C(C)C)[C@@H](N)C2)n1	-0.4656
Cn1nc(C(N)=O)c2ccccc21	8.42
O=C1c2ccccc2C(=O)N1CN1CCCCC1	-1.337
CCN(C)CCNC(=O)c1cc(C2CC2)[nH]n1	5.065
COc1ccc(CN)c(F)c1	1.324
CCCOc1ccc(CNC(=O)c2cc[nH]n2)cn1	63.02
C[C@@H](N)C(=O)N1CCC(OCCCc2ccccc2)C1 (stereo partly shown)	43.84
CNCC(=O)NCc1cnc(-c2cccc(OC)c2)s1	49.45
CCOC(=O)CN(c1cccc(F)c1)S(C)(=O)=O	27.67
CC(CN)(CO)CO	-5.271
CN(C)CCNC(=O)c1ccc(Br)o1	-7.302
C=Cc1nnnn1-c1ccccc1	13.02
O=C(CCN1CCC[C@H]1CO)Nc1ccccc1Cl	-9.023
CN(CC(N)=O)CC(=O)NCc1cc(Br)cs1	33.72
NC(=O)CSc1ccnc(SCC(N)=O)n1	3.945
O=C(c1ccc(Br)o1)N1CCN(Cc2ccco2)CC1	91.71
CNCC(=O)NCCc1c(OC)ccc2ccccc12	59.74
CC(=O)NCCC(=O)NCC1(c2ccccc2)CC1	25.11
Cc1ccc(CCNC(=O)NCc2cnn(C)c2)cn1	-2.192
COc1ccc(OC)c(NC(=O)N(C)CCN(C)C)c1	27.38
O=C(NCCCOC(F)F)NCc1ccc(Br)o1	70.02
CCCNC(=O)CNc1cc(F)c(OC)c(F)c1	67.17
NCc1nc(-c2ccccn2)no1	-0.03095
COC(=O)CCCC(=O)Nc1ncccc1Cl	-7.308
Cc1cccc(NCCCNC(=O)c2cccs2)n1	62.89
Cc1cc(C)c(C(=O)N2CCOCC(CO)C2)c(=O)[nH]1 (stereo not shown)	-7.518
c1ccc(N2CCCNCC2)nc1	9.475
Cc1cc(CNC(=O)C2CCCCCN2C)n(C)n1 (stereo not shown)	10.77
O=C(NCc1ccc2c(c1)OCO2)Nc1nccs1	60.03
O=C1NC(Cc2ccccc2)C(=O)Nc2ccccc21 (stereo not shown)	18.08
COCCc1noc(C2CCN(CC(N)=O)CC2)n1	-5.264
Cc1nn(CCC(=O)NCCN2CCOCC2)cc1Br	-1.68
COCC(C)NC(=O)c1cccc(NS(C)(=O)=O)c1 (stereo not shown)	1.675
CCn1cc(C2CSCCN2)cn1 (stereo not shown)	2.47
CN(CCNC(=O)NC1CCOCC1)C1CCCC1	-7.975
O=C(NCCOc1ncccc1Cl)c1cscn1	-4.379
COc1ccc(C2CCN(CC(=O)NC(N)=O)C2)cc1 (stereo not shown)	65.05
Cn1cc(C(=O)NCCNS(C)(=O)=O)c2ccccc21	17.3
CC(C)N(CC(C)(C)O)C(=O)NCC1CCCO1 (stereo not shown)	-1.045
COCC1=Nc2ccccc2CN1	-2.079
Cc1cccc(NC(=O)C(C)N)c1 (stereo not shown)	18.49
COc1cc(C(=O)NC(C)CCO)ccc1OC(C)C (stereo not shown)	8.078
O=C(Nc1ccccn1)C1Cc2ccccc2O1 (stereo not shown)	85.64
CCS(=O)(=O)NCC(N)c1ccc(C(C)C)cc1 (stereo not shown)	74.45
Cc1ccncc1NC(=O)Nc1cnccc1C	-3.507
COc1ncccc1CN(C)C(=O)c1ccccc1F	59

Repeated from the top, 6 entries:

{"structure": "CC(C(N)=O)S(=O)(=O)Cc1ccc(Br)s1", "stereo": "stereo not shown", "effect": 26.11}
{"structure": "NCc1nc(-c2ccccn2)cs1", "effect": 21.12}
{"structure": "c1ccc(COCCc2noc(C3CNC3)n2)cc1", "effect": 101.5}
{"structure": "CC(C)N(CCOc1ccccc1C#N)CC(N)=O", "effect": 44.62}
{"structure": "Cc1cc(C)c(NC(=O)N[C@@H]2CCNC[C@H]2O)c(Cl)c1", "effect": 21.29}
{"structure": "CC(C)CN1CCC(NCCSc2nnnn2C)CC1", "effect": 4.744}

Measurements from “University of Dundee, Small-Polar-MMV Screening Library” (2021), ChEMBL document CHEMBL3988442.